{
  "source": "paper PMC10434001",
  "about": "(2023)",
  "experiment_in_all_cases": "SPR",
  "key": {"peptide P2": {"biological_target": "peptide P2"}, "peptide P5": {"biological_target": "peptide P5"}, "[1]": {"biological_target": "peptide P3, derived from IL17RA"}, "peptide P1": {"biological_target": "peptide P1"}, "peptide P4": {"biological_target": "peptide P4"}},
  "data": [
    {"binder": "SARS-CoV-2 ORF8 ([…]) with N-terminal 8×His tag and maltose binding protein (MBP) tag (domain or fragment, N-glycosylation (N-acetyl-beta-d-glucosamine, NAG) at N78) not shown", "values": [
      {"measurement": "Kd", "setting": "peptide P2", "result": 1250, "unit": "nM"},
      {"measurement": "Kd", "setting": "peptide P5", "result": 1990, "unit": "nM"},
      {"measurement": "Kd", "setting": "[1]", "result": 889, "unit": "nM"},
      {"measurement": "Kd", "setting": "peptide P1", "result": 179, "unit": "nM"},
      {"measurement": "Kd", "setting": "peptide P4", "result": 1510, "unit": "nM"}
    ]}
  ]
}
